Values from PubChem BioAssay AID1259414 (Drosophila RNAi Screening Center, 2018).

Purpose: 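Fly genes that alter Wolbachia amount inside host cells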 (primary screen)
Cell system: Drosophila JW18 cells infected with Wolbachia
Reagents: long dsRNA against Drosophila genes, 0.25 µg dsRNA per well of a 384-well plate
Duration: 5 days
Challenge: cells persistently infected with Wolbachia before knock-down; no added drug
Detection: 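Imaged fluorescence in situ signal for Wolbachia 23S rRNA per DAPI-counted host cell, given as a robust z-score within each plate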
Reading the numbers: Wolbachia per cell robust z: higher = more Wolbachia per host cell than the plate typical
Rule for the call: 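Hit when robust z is 1.5 or more, or -1.5 or less, in at least two of three replicates; excludes dsRNAs with several or no targets, genes not expressed in JW18 and well A1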
The deposit covers about 24,000 reagents; below is a random part of those with a known target gene and a result. In the full data, about 1,210 (5%) are marked active. 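Inactive calls also include excluded dsRNAs with several or no targets, genes unexpressed in JW18, and well A1, regardless of score.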

gene	amplicon	Wolbachia per cell robust z, rep 1	Wolbachia per cell robust z, rep 2	Wolbachia per cell robust z, rep 3	Call
Dnah3	DRSC08130	-5.5	-4.89	-6.61	inactive
Dnah3	DRSC08513	-1.04	-2.51	-0.547	inactive
Dnah3	DRSC28789	0.569	-0.311	0.805	inactive
CG42709	DRSC10277	0.695	-0.116	-0.271	inactive
CG42709	DRSC25693	-0.339	-0.0941	-0.596	inactive
CG8738	DRSC07256	-0.716	1.4	1.33	inactive
CG31957	DRSC00207	0.72	0.419	0.758	inactive
l(2)gd1	DRSC02773	0.553	0.52	-0.854	inactive
l(2)gd1	DRSC29178	-6.91	-0.757	-0.964	inactive
Hydr2	DRSC00607	0.241	-1.45	0.354	inactive
CG12795	DRSC00354	-0.026	-0.535	-0.641	inactive
Muc68E	DRSC09146	0.374	0.69	0.0192	inactive
Muc68E	DRSC26478	-0.853	0.0749	-2.18	inactive
CG5776	DRSC02891	-0.423	-0.736	-1.16	inactive
CG5776	DRSC41522	-0.919	0.473	1.01	inactive
CG31510	DRSC14182	-2.35	0.674	0.183	inactive
Sodh2	DRSC16865	0.418	-0.309	-0.0218	inactive
Sodh2	DRSC41541	0.443	0.193	-1.28	inactive
Irk1	DRSC14686	0.965	-1.33	0.856	inactive
Irk1	DRSC16106	0.932	-0.859	-6.06	inactive
Irk1	DRSC28063	-0.62	0.653	-0.389	inactive
Ac3	DRSC03692	-0.705	0.931	0.747	inactive
TfIIA-S-2	DRSC17791	-0.199	-0.58	-1.31	inactive
CG11635	DRSC06075	-0.162	0.63	0.681	inactive
CG11635	DRSC41304	0.146	-2.37	0.56	inactive
CG3961	DRSC10390	-0.476	0.211	-4.41	inactive
CG3961	DRSC10391	0.283	-0.674	0.609	inactive
CG4594	DRSC02762	-0.673	0.425	0.856	inactive
mael	DRSC11894	-0.0839	-2.93	-1.08	inactive
sgl	DRSC21431	0.937	0.346	1.41	inactive
sgl	DRSC29308	0.452	0.115	0.414	inactive
sgl	DRSC40740	-1.31	-0.508	-0.0847	inactive
CG14082	DRSC10086	-0.492	-1.18	-0.114	inactive
CG14082	DRSC25472	1.21	-0.126	0.531	inactive
tkv	DRSC03623	0.194	-0.605	0.0532	inactive
tkv	DRSC22606	-1.24	0.149	0.531	inactive
tkv	DRSC25957	-1.15	-1.37	-1.1	inactive
phol	DRSC10367	-1.15	0.135	0.687	inactive
phol	DRSC23852	-0.246	-0.366	0.278	inactive

Continued; the last 3 above are carried over.
gene	amplicon	Wolbachia per cell robust z, rep 1	Wolbachia per cell robust z, rep 2	Wolbachia per cell robust z, rep 3	Call
tkv	DRSC25957	-1.15	-1.37	-1.1	inactive
phol	DRSC10367	-1.15	0.135	0.687	inactive
phol	DRSC23852	-0.246	-0.366	0.278	inactive
CG15221	DRSC19659	-0.258	-3.67	0.0617	inactive
amx	DRSC23466	-2.23	-0.254	0.692	inactive
tacc	DRSC12019	-0.6	-0.99	-7.56	inactive
tacc	DRSC12388	1.16	0.754	-0.092	inactive
tacc	DRSC29052	0.892	0.585	-0.73	inactive
tacc	DRSC40809	0.698	0.378	-0.761	inactive
Psf3	DRSC18216	-0.679	-0.903	-1.04	inactive
Psf3	DRSC21487	0.0296	-1.16	0.204	inactive
mRpL40	DRSC15749	1.02	-3.53	0.948	inactive
mRpL40	DRSC27264	-0.104	0.36	0.503	inactive
Vsx2	DRSC18088	0.513	-3.2	-0.846	inactive
Vsx2	DRSC23089	-0.809	-0.00866	1.44	inactive
Vsx2	DRSC23273	-0.583	-6.05	0.0785	inactive
Spn28Da	DRSC02162	1.01	-0.449	0.482	inactive
vrs	DRSC15832	1.04	-0.0462	-0.483	inactive
vrs	DRSC26261	-0.00119	0.146	0.0163	inactive
UK114	DRSC01973	0.775	0.428	-6.49	inactive
mt:CoI	DRSC40577	-0.274	-2.65	-2.15	inactive
tsg	DRSC20380	-1.1	-0.513	-0.809	inactive
tsg	DRSC25436	0.155	1.83	1.59	inactive
Sirup	DRSC03031	0.467	0.223	-0.813	inactive
Sirup	DRSC29298	-1.56	0.641	-7.41	inactive
Sirup	DRSC39012	0.801	1.85	1.93	inactive
ATPsynC	DRSC15236	2.57	-9.18	-0.784	inactive
CG10877	DRSC14274	0.422	0.0481	0.523	inactive
ND-MLRQ	DRSC11913	-1.11	-0.719	-0.0467	inactive
CG30398	DRSC03891	-2.27	-1.37	-0.495	inactive
CG13786	DRSC02289	-0.075	2.33	-0.303	inactive
CG13786	DRSC27762	0.676	0.526	-0.837	inactive
eIF2Balpha	DRSC16332	-0.184	0.993	0.286	inactive
Cyp4d8	DRSC11131	-0.208	0.18	0.726	inactive
Cyp4d8	DRSC29268	-0.373	-1.39	-7.21	inactive
CG10376	DRSC02049	1.08	0.259	-1.05	inactive
CG10376	DRSC26744	0.658	-0.954	0.0239	inactive
CG15399	DRSC38934	-0.463	0.558	-0.0635	inactive
CG12581	DRSC12206	-2.09	0.195	0.667	inactive
CG12581	DRSC12207	0.0976	-1.23	-0.561	inactive
mRpS35	DRSC08551	0.347	0.838	0.686	inactive
drn	DRSC15148	-3.97	0.715	-0.316	inactive
GluProRS	DRSC14095	0.678	-0.675	2.23	inactive
CG10104	DRSC05964	-2.96	1.5	-1.67	inactive
MtnC	DRSC22879	-5.64	-0.802	-0.399	inactive
wda	DRSC15579	0.408	0.476	-0.291	inactive
wda	DRSC22351	0.11	0.396	0.71	inactive
CG30281	DRSC04528	0.523	-0.691	0.127	inactive
CG30281	DRSC26805	0.00429	-1.47	-0.291	inactive
orion	DRSC18213	-3.6	0.855	1.05	inactive
orion	DRSC18214	0.0467	0.723	0.714	inactive
